From paper PMC6155662, “Trypanocidal Activity of Quinoxaline 1,4 Di-N-oxide Derivatives as Trypanothione Reductase Inhibitors” (Molecules : A Journal of Synthetic Chemistry and Natural …, 2017) come the findings set out here.

Molecules are shown by their SMILES.

This series has as its system T. cruzi INC-5 epimastigotes. The series can be described thus: Viability (MTT) assay on T. cruzi epimastigotes. Conditions: ratio CC50 (J774A.1) / IC50 (INC-5 epimastigotes). The class given is cell-based, Trypanosoma cruzi.
In the case of `O=C(Cn1ccnc1[N+](=O)[O-])NCc1ccccc1` [Bnz, benznidazole, reference compound], the SI came to 8.31.

For `COC(=O)c1c(C)[n+]([O-])c2ccc(C(=O)OC(C)C)cc2[n+]1[O-]` [Compound T-064, Isopropyl methyl-3-methyl-quinoxaline-2,7-dicarboxylate 1,4-di-N-oxide], the SI came to 3.09.

As for `CCOC(=O)Cc1c(C(=O)OCC)[n+]([O-])c2cc(C(=O)OC(C)C)ccc2[n+]1[O-]` [Compound T-067, Isopropyl ethyl-3-(2-ethoxy-2-oxoethyl) quinoxaline-2,7-dicarboxylate 1,4-di-N-oxide], the SI was 3.66.

Regarding `CC(C)OC(=O)c1ccc2c(c1)[n+]([O-])c(C(=O)c1cccs1)c(C(F)(F)F)[n+]2[O-]` [Compound T-069, Isopropyl 2-(thiophene-2-carbonyl)-3-trifluoromethylquinoxaline-7-carboxylate 1,4-di-N-oxide], the SI was determined as 2.58.

For the molecule `CC(=O)c1c(C(F)(F)F)[n+]([O-])c2ccc(C(=O)OC(C)C)cc2[n+]1[O-]` [Compound T-070, Isopropyl 2-acetyl-3-trifluoromethylquinoxaline-7-carboxylate 1,4-di-N-oxide], the SI came out at 6.17.

Regarding `CC(C)OC(=O)c1ccc2c(c1)[n+]([O-])c(C(=O)c1ccccc1)c(C(F)(F)F)[n+]2[O-]` [Compound T-071, Isopropyl 2-benzoyl-3-trifluoromethylquinoxaline-7-carboxylate 1,4-di-N-oxide], the SI was found to be 1.66.

Consider `CC(C)OC(=O)c1ccc2c(c1)[n+]([O-])c(C(=O)c1ccco1)c(C(F)(F)F)[n+]2[O-]` [Compound T-073, Isopropyl 2-(furyl-2-carbonyl)-3-trifluoromethylquinoxaline-7-carboxylate 1,4-di-N-oxide], for which the SI was 1.64.

On to `CC(C)OC(=O)c1ccc2c(c1)[n+]([O-])c(C(=O)C(C)C)c(C(F)(F)F)[n+]2[O-]` [Compound T-085, Isopropyl 2-isobutyryl-3-trifluoromethylquinoxaline-7-carboxylate 1,4-di-N-oxide], for which the SI was 4.28.

For `CCCOC(=O)c1ccc2c(c1)[n+]([O-])c(C(=O)OC)c(C)[n+]2[O-]` [Compound T-088, n-Propil methyl-3-methylquinoxaline-2,7-dicarboxylate 1,4-di-N-oxide], the SI is 1.03.

In the case of `CCCOC(=O)c1ccc2c(c1)[n+]([O-])c(C(=O)c1cccs1)c(C(F)(F)F)[n+]2[O-]` [Compound T-089, n-Propil 2-(thiophene-2-carbonyl)-3-trifluoromethylquinoxaline-7-carboxylate 1,4-di-N-oxide], the SI is reported as 1.01.

On to `CCCOC(=O)c1ccc2c(c1)[n+]([O-])c(C(=O)OCC)c(C)[n+]2[O-]` [Compound T-090, n-Propil ethyl-3-methylquinoxaline-2,7-dicarboxylate 1,4-di-N-oxide], for which the SI stood at 0.93.

Regarding `Cc1c(C(=O)c2ccccc2)[n+]([O-])c2cc(C(=O)OC(C)C)ccc2[n+]1[O-]` [Compound T-098, Isopropyl 2-benzoyl-3-methylquinoxaline-7-carboxylate 1,4-di-N-oxide], the SI is on record as 0.98.

In the case of `CC(C)OC(=O)c1ccc2c(c1)[n+]([O-])c(C(=O)C(C)(C)C)c(C(C)(C)C)[n+]2[O-]` [Compound T-107, Isopropyl 2-(tert-butyl-2-carbonyl)-3-tert-butylquinoxaline-7-carboxylate 1,4-di-N-oxide], the SI is 1.79.

Regarding `Cc1c(C(N)=O)[n+]([O-])c2cc(C(=O)OC(C)C)ccc2[n+]1[O-]` [Compound T-108, Isopropyl 2-amide-3-methyl-quinoxaline-7-carboxilate 1,4-di-N-óxide], the SI came to 1.69.

As to `CCOC(=O)c1c(C(F)(F)F)[n+]([O-])c2ccc(C(=O)OC(C)C)cc2[n+]1[O-]` [Compound T-116, Isopropyl ethyl-3-trifluoromethylquinoxaline-2,7-dicarboxylate 1,4-di-N-oxide], the SI is 2.78.

For the molecule `CC(C)OC(=O)c1ccc2c(c1)[n+]([O-])c(C(=O)C(F)(F)C(F)(F)F)c(C(F)(F)F)[n+]2[O-]` [Compound T-118, Isopropyl 2-pentafluorocarbonyl-3-trifluoromethylquinoxaline-7-carboxylate 1,4-di N-oxide], the SI is 2.18.
